The structures appear in SMILES notation. The entries are a selection whose mix differs from that of the whole data set. Some salts and complexes are drawn in separate pieces, as the source files them; their charges need not balance. Activity calls are given as the source filed them. Calls follow the shape of the dose curve; as a rule, active = well fitted inhibition curve with a large enough effect; inconclusive = small, poorly fitted or top-dose-only effect; inactive = flat fitted curve, though single readings scatter.

A short description of this assay: qHTS for Inhibitors of Vif-A3F Interactions: qHTS. Also: % of control where 0% means no effect; nearly all actives have a fitted effect of over 65% in size. As to conditions: HeLa A3F-eYFP + Vif (tagged APOBEC3F with the HIV-1 protein that degrades it), YFP fluorescence increase; at 46.1 µM (top of the series). The source says:
The recent discovery and characterization of host restriction factors, which provide a potent defense to invading retroviruses, has provided new targets for antiviral drug development. APOBEC3G (A3G) and APOBEC3F (A3F) are potent cytidine deaminases that block HIV-1 replication; HIV-1 expresses the Vif protein, which counteracts A3G and A3F by binding to them and inducing their proteasomal degradation. The Vif-A3G and Vif-A3F interactions provide two potential targets for development of small molecules which can interfere with the ability of Vif to degrade A3G or A3F. […] To identify inhibitors that can interfere with Vif mediated degradation of A3G and A3F, we have developed Hela cell lines that stably express A3G or A3F tagged with eYFP at the C-terminal end (A3G-eYFP or A3F-eYFP, respectively) and Vif. In the absence of an inhibitor, Vif induces degradation of A3G-eYFP and A3F-eYFP, and the cells are not fluorescent. In the presence of an inhibitor, it is expected that Vif will be unable to degrade A3G-eYFP and/or A3F-eYFP, resulting in an increase in yellow fluorescence. In this assays Vif A3F was screened against the Molecular Library Small Molecule Repository (MLSMR). NIH Chemical Genomics Center [NCGC] NIH Molecular Libraries Probe Centers Network [MLPCN] MLPCN Grant: MH093245 Assay Submitter (PI): Vinay Pathak, National Cancer Institute
5 uL of 700 cells/well of A3F-YFP cells are dispensed into black, clear bottom plates. The plates are incubated overnight at 37 deg C. 23 nL of compounds are added by pintool. The plates are incubated overnight at 37 deg C and then read on the TTP Acumen (Ex 488/ Em 500-530).
In general terms: qHTS replaces the single test concentration by a dilution series.
`CC(=O)N(c1ccccc1)C1CCNCC1`: the activity, negative = active is inactive: -0.798%.
Consider `Cc1ccc(NC2(C#N)CCN(Cc3ccccc3)CC2)cc1`, for which the activity, negative = active is inactive: 0%.
As to `Cc1ccc(C(=O)NCC2(N3CCCCC3)CCCCC2)o1`, the activity, negative = active was inactive: -5.08%.
With `Fc1ccccc1NC1CCN(Cc2ccccc2)CC1` the figure was inactive: -11.8%; with `Cc1ccc(Nc2c([N+](=O)[O-])cc([N+](=O)[O-])cc2[N+](=O)[O-])cc1`, inactive: 10.1%; with `CCC(CO)(C(=O)OC1CN2CCC1CC2)c1ccccc1` (stereo unspecified), inactive: -5.92%.
`COc1cc(OC)cc(C(=O)NCC2(N3CCOCC3)CCCCC2)c1`: the activity, negative = active is inactive: 7.52%.
The result for `COc1cc(C(=O)NCC2(N3CCOCC3)CCCCC2)cc(OC)c1OC` reads inactive: -3.36%; that for `COc1cccc(C(=O)N(c2cc(C)cc(C)c2)C2CCN(C(=O)OC(C)(C)C)CC2)c1`, inactive: 1.63%; that for `CN1CCC(Nc2ccc(Cl)cc2)CC1`, inactive: 0.0532%.
Take `CCOc1ncccc1C(=O)NCC1(N2CCOCC2)CCCCC1`: the activity, negative = active was inactive: 2.21%.
With `CN1CCC(Nc2ccc(F)c(Cl)c2)CC1` the figure was inactive: -0.0638%.
The result for `CCCOc1ccc(C(=O)NCC2(N(C)C)CCCCC2)cc1` reads inactive: -0.0746%; that for `CC(C)(C)OC(=O)N1CCC(Nc2ccccc2)CC1`, inactive: 0.271%.
Take `O=C(O)C1(Nc2ccccc2)CCN(Cc2ccccc2)CC1`: the activity, negative = active is inactive: -10.8%.
For the compound `O=C(NCC1(N2CCOCC2)CCCCC1)c1cc2ccccc2o1`, the activity, negative = active was inactive: -22.6%.
For `O=C(NCC1(N2CCCCC2)CCCCC1)c1ccc(Cl)nc1`, the activity, negative = active is inactive: 0.57%.
As for `Cc1cc(C)cc(N(C(=O)c2ccccc2)C2CCN(C(=O)OC(C)(C)C)CC2)c1`, the activity, negative = active is inactive: -6.27%.
With `CCOC(=O)N1CCC(Nc2ccc(OC)cc2)CC1` the figure was inactive: -6.52%.
The result for `O=C(NCC1(N2CCCCC2)CCCCC1)c1ccc(Cl)s1` reads inactive: -4.22%; that for `N#CC1(Nc2ccccc2)CCN(Cc2ccccc2)CC1`, inactive: 13%.
In the case of `O=C(OC1CN2CCC1CC2)C1c2ccccc2Oc2ccccc21` (stereo unspecified), the activity, negative = active was inactive: -7.59%.
For `COc1ccc(Cl)cc1C(=O)NCC1(N2CCOCC2)CCCCC1`, the activity, negative = active is inactive: -6.48%.
`O=C1C(O)=C([N+](=O)[O-])C(=O)C(O)=C1[N+](=O)[O-]`: the activity, negative = active was inactive: -5.36%.
With `O=C(NCC1(N2CCCCC2)CCCCC1)c1ccc(=O)[nH]c1` the figure was inactive: 1.09%; with `O=C(NCC1(N2CCCCC2)CCCCC1)c1cccs1`, inactive: -19.7%; with `COc1ccc(C(=O)NCC2(N3CCCCC3)CCCCC2)cc1`, inactive: 1.03%.
The result for `CC(C)(C)OC(=O)N1CCC(N(C(=O)c2ccccc2)c2ccc(F)cc2)CC1` reads inactive: 1.45%; that for `COc1ccc(C(=O)NCC2(N3CCCCC3)CCCCC2)c(OC)c1OC`, inactive: -1.65%.
For the compound `CSc1ccccc1C(=O)NCC1(N2CCCCC2)CCCCC1`, the activity, negative = active is inactive: 0.0167%.
Consider `Cc1cccc(NC2(C#N)CCN(Cc3ccccc3)CC2)c1`, for which the activity, negative = active was inactive: -3.78%.
Turning to `CCOC(=O)N1CCC(Nc2cccc(C)c2)CC1`, the activity, negative = active was inactive: 2%.
On to `COc1cc(C(=O)NCC2(N(C)C)CCCCC2)ccc1OC(F)F`, for which the activity, negative = active is inactive: 7.41%.
With `CCOc1ccc(C)cc1CN(CCCl)CCCl` the figure was inactive: 3.46%.
Consider `O=C(NCC1(N2CCOCC2)CCCCC1)c1ccc(Cl)cc1`, for which the activity, negative = active is inactive: -0.894%.
On to `O=C1CCN(Cc2ccccc2)CC1`, for which the activity, negative = active is inactive: 3.33%.
With `O=P1(N(CCCl)CCCl)SCCCS1`, the activity, negative = active was inactive: 10.7%.
As for `CCCCOc1ccc(C(=O)NCC2(N3CCOCC3)CCCCC2)cc1`, the activity, negative = active is inactive: -6.44%.
With `O=C(NCC1(N2CCCCC2)CCCCC1)c1ccc(F)cc1`, the activity, negative = active is inactive: -31.4%.
Turning to `COc1ccc(NC2CCN(CCc3ccccc3)CC2)c(OC)c1`, the activity, negative = active was inactive: 1.16%.
Turning to `CCOC(=O)N1CCC(Nc2ccc(F)cc2)CC1`, the activity, negative = active was inactive: -5.92%.
Consider `COc1ccccc1C(=O)NCC1(N2CCOCC2)CCCCC1`, for which the activity, negative = active is inactive: 4.34%.
As to `CCCOc1cccc(C(=O)NCC2(N3CCOCC3)CCCCC2)c1`, the activity, negative = active is inactive: -6.24%.
For `O=C(NCC1(N2CCCCC2)CCCCC1)c1cccc(C(F)(F)F)c1`, the activity, negative = active was inactive: -2.52%.
As to `O=[N+]([O-])c1cc([N+](=O)[O-])c(NCC2CCS(=O)(=O)C2)c([N+](=O)[O-])c1` (stereo unspecified), the activity, negative = active was inactive: -8.97%.
Consider `CN1CCN(CCOC(=O)C(O)(c2ccccc2)c2ccccc2)CC1`, for which the activity, negative = active is inactive: 2.88%.
As to `CC(C)c1ccc(C(=O)NCC2(N3CCOCC3)CCCCC2)cc1`, the activity, negative = active was inactive: 3.41%.
For `COc1ccc(NC2CCN(C(=O)OC(C)(C)C)CC2)cc1`, the activity, negative = active is inactive: 0.817%.
In the case of `COc1cc(C(=O)NCC2(N3CCCCC3)CCCCC2)ccc1OC(F)F`, the activity, negative = active is inactive: -5.21%.
Consider `O=C(NCC1(N2CCOCC2)CCCCC1)c1cc(=O)[nH]c2ccccc12`, for which the activity, negative = active was inactive: 1.49%.
Turning to `O=C(NCC1(N2CCCCC2)CCCCC1)c1ccc(OC(F)F)cc1`, the activity, negative = active is inactive: -9.23%.
Turning to `O=C(NCC1(N2CCCCC2)CCCCC1)c1cccc([N+](=O)[O-])c1`, the activity, negative = active was inactive: 0.991%.
Regarding `CCOc1ccc(C(=O)NCC2(N3CCOCC3)CCCCC2)cc1`, the activity, negative = active is inactive: 6.75%.
For `CSc1ccc(C(=O)NCC2(N3CCOCC3)CCCCC2)cc1`, the activity, negative = active was inactive: -0.103%.
On to `CCN1CCC(Nc2ccc(Cl)cc2)CC1`, for which the activity, negative = active is inactive: -2.55%.
With `N#CC1(Nc2ccccc2)CCN(CCc2ccccc2)CC1`, the activity, negative = active was inactive: 1.66%.
With `CN1CCC(Nc2cccc(F)c2)CC1`, the activity, negative = active was inactive: -0.979%.
As for `COc1ccc2c(c1O)-c1c(O)c(OC)cc3c1[C@H](C2)[N+](C)(C)CC3.O=[N+]([O-])c1cc([N+](=O)[O-])c([O-])c([N+](=O)[O-])c1[O-]`, the activity, negative = active is inactive: 4.48%.
Take `O=C(NCC1(N2CCCCC2)CCCCC1)c1cncc(Br)c1`: the activity, negative = active was inactive: 2.37%.
For the compound `O=C(OC1CN2CCC1CC2)c1ccc([N+](=O)[O-])cc1` (stereo unspecified), the activity, negative = active was inactive: 22.3%.
With `CCCCOc1ccccc1C(=O)NCC1(N2CCOCC2)CCCCC1`, the activity, negative = active was inactive: -9.55%.
In the case of `Cc1ccc(C(=O)NCC2(N(C)C)CCCCC2)o1`, the activity, negative = active is inactive: -0.597%.
For the compound `O=C(NCC1(N2CCOCC2)CCCCC1)c1ccccc1Br`, the activity, negative = active was inactive: 3.69%.
Take `CCCOc1ccc(C(=O)NCC2(N(C)C)CCCCC2)cc1OC`: the activity, negative = active was inactive: 5.48%.
For `O=[N+]([O-])c1cc([N+](=O)[O-])c(Nc2ccc(Cl)cc2)c([N+](=O)[O-])c1`, the activity, negative = active is inactive: 0.97%.
On to `COc1ccc(CN(CCCl)CCCl)cc1Cl`, for which the activity, negative = active is inactive: -8.5%.
Turning to `O=[N+]([O-])c1cc([N+](=O)[O-])c(OC2CCCCC2O)c([N+](=O)[O-])c1` (stereo unspecified), the activity, negative = active was inactive: 1.65%.
Turning to `CN(C)c1cccc(C(=O)NCC2(N3CCCCC3)CCCCC2)c1`, the activity, negative = active was inactive: 15.3%.
On to `CC(C)c1ccc(NC2CCN(C(=O)OC(C)(C)C)CC2)cc1`, for which the activity, negative = active was inactive: 15.2%.
The result for `COc1cc(OC)c(C(=O)NCC2(N(C)C)CCCCC2)cc1OC` reads inactive: 1.21%; that for `O=C(NCC1(N2CCOCC2)CCCCC1)c1cc(F)c(F)cc1Cl`, inactive: -11%.

Values taken from PubChem BioAssay AID602313 (National Center for Advancing Translational Sciences (NCATS), 2012).
